The target in the test is VD9 (germline Vκ1 light chain variable domain), wild type. Briefly: cell-based or functional assay.

The molecule QTAEF (modifications not checked) [synthetic "zipper" peptide PL (QTAEF)] had a fibrillogenesis of VD9 (ThT fluorescence) (fold molar excess) of 10.

Source of the values: US20100047237A1.
